Record: PubChem BioAssay AID1259414 (Drosophila RNAi Screening Center, 2018)
Assay: 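Host factors increasing or decreasing Wolbachia levels in cultured fly cells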 (primary screen). Cells: Drosophila JW18 cells infected with Wolbachia. Reagent: long dsRNA against Drosophila genes, 0.25 µg dsRNA per well of a 384-well plate. Timing: 5 days. Treatment: cells persistently infected with Wolbachia before knock-down; no added drug. Measured: 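Automated imaging of bacterial rRNA staining divided by host cell count, reported as plate-normalised robust z-score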. Direction: Wolbachia per cell robust z: higher = more Wolbachia per host cell than the plate typical. Call rule: 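Active if absolute robust z reaches 1.5 in two or more of three replicates, leaving out multi- or no-target dsRNAs, genes unexpressed in JW18 and A1 wells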.
In all, the deposit lists about 24,000 reagents; shown is an unselected part of those with a known target gene and a result. Over the whole deposit, about 1,210 (5%) were called active. 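Inactive calls also include excluded dsRNAs with several or no targets, genes unexpressed in JW18, and well A1, regardless of score.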 Names joined by + are all predicted targets of the reagent. Reagent sequences are not shown.

predicted target	PubChem SID	Wolbachia per cell robust z, rep 1	Wolbachia per cell robust z, rep 2	Wolbachia per cell robust z, rep 3	Call
Slc45-1	SID104190219	0.744	1.35	0.683	inactive
CG32278 + CG14963	SID104201739	0.229	0.197	1.14	inactive
Ir60d (Ionotropic receptor 60d)	SID104184010	-1.14	0.335	-5.09	inactive
CG10365	SID104194026	0.282	-0.0455	-0.242	inactive
CG15468	SID104197843	-0.0693	-2.17	-0.166	inactive
PCID2 (PCI domain-containing protein 2)	SID104190614	-0.085	0.568	0.888	inactive
PCID2 (PCI domain-containing protein 2)	SID104207834	0.906	0.641	-1.06	inactive
CG8837	SID104180503	0.437	0.863	-0.183	inactive
CG8837	SID104207984	-0.208	-0.76	-0.322	inactive
CG3880	SID104184220	-1.68	0.365	0.917	inactive
CG3880	SID104201166	-0.919	-0.54	-0.383	inactive
CG3880	SID104205993	-0.112	-1.51	-1.28	inactive
Aptx (aprataxin)	SID104195560	-0.865	-5.36	0.554	inactive
Aptx (aprataxin)	SID104206665	-0.648	0.726	-0.0822	inactive
Rcd-1r + CG13102	SID104183058	0.353	-0.176	0.0265	inactive
Cyp9f3 (Cytochrome P450 9f3)	SID104196428	-0.00545	-7.86	-3.06	active
Cyp9f3 (Cytochrome P450 9f3)	SID104204255	1.33	0.17	-2.86	inactive
hppy (happyhour)	SID104186806	-1.14	-1.09	0.639	inactive
hppy (happyhour)	SID104186807	-1.23	-3.01	-0.906	inactive
hppy (happyhour)	SID104186808	0.319	0.149	-1.34	inactive
hppy (happyhour)	SID104206712	1.22	0.435	1.16	inactive
Pex11ab (Peroxin 11a/b)	SID104186937	-2.78	-2.18	-1.6	active
Tsp74F (Tetraspanin 74F)	SID104190300	-0.159	1.14	-0.534	inactive
CG42819	SID104182056	-0.39	0.729	-1	inactive
CG14013	SID104182136	-5.24	0.133	1.05	inactive
JMJD7 (Jumonji domain containing 7)	SID104189495	0.936	0.638	-0.978	inactive
Tsp26A (Tetraspanin 26A)	SID104182927	0.0406	-3.1	0.0304	inactive
Ire1 (Inositol-requiring enzyme-1)	SID104195398	-1.29	-0.616	0.13	inactive
CG13587	SID104184015	0.718	-0.179	0.245	inactive
CG13587	SID104208176	-0.483	0.417	0.207	inactive
tzn (tenzing norgay)	SID104191547	0.907	-0.107	-0.0564	inactive
CG13994	SID104182118	-1.67	-0.309	-0.0916	inactive
La (La autoantigen-like)	SID104183150	1.59	0.81	1.65	active
CG42847	SID104218095	-0.309	-0.37	-1.93	inactive
CG33107	SID104201525	-0.713	-0.278	-1.54	inactive
Ctu1 (Cytosolic thiouridylase subunit 1)	SID104186861	0.497	0.217	0.867	inactive
capt (capulet)	SID104180468	-2.73	-0.0632	0.0473	inactive
capt (capulet)	SID104180598	1.21	-0.859	0.788	inactive
capt (capulet)	SID104205887	-0.974	-0.422	-0.593	inactive
capt (capulet)	SID104206740	1.2	1.1	0.0812	inactive
Ktch (Ketchup)	SID104194886	-1.13	0.346	0.749	inactive
Ktch (Ketchup)	SID104204517	0.872	0.299	1.42	inactive
CG12716	SID104199285	-4.91	-1.31	-0.211	inactive
CG12716	SID104207346	-0.135	-0.859	-0.551	inactive
edl (ETS-domain lacking)	SID104186308	0.399	-0.278	0.318	inactive
edl (ETS-domain lacking)	SID104206579	-2.66	0.998	0.616	inactive
CG17528	SID104187553	-0.773	0.00243	0.73	inactive
CG6726	SID104195893	0.829	-1.09	0.709	inactive
CG6726	SID104206674	1.02	-1.03	0.00569	inactive
Ugt50B3 (UDP-glycosyltransferase family 50 member B3)	SID104184570	-1.7	0.307	-1.68	inactive
Ugt50B3 (UDP-glycosyltransferase family 50 member B3)	SID104201172	-0.808	0.132	-1.33	inactive
CG13123	SID104182011	0.747	-0.463	0.224	inactive
cN-IIIB (cytosolic 5'-nucleotidase IIIB)	SID104184151	-0.067	0.165	-2.49	inactive
cN-IIIB (cytosolic 5'-nucleotidase IIIB)	SID104218927	1.03	-0.494	0.148	inactive
GLS (Glutaminase)	SID104187053	-1.06	0.132	0.785	inactive
GLS (Glutaminase)	SID104204506	0.175	-0.23	1.66	inactive
NaPi-T (Na[+]-dependent inorganic phosphate cotransporter)	SID104187268	-4.18	-4.51	-0.203	active
NaPi-T (Na[+]-dependent inorganic phosphate cotransporter)	SID104203215	-1.02	0.623	-0.181	inactive
NaPi-T (Na[+]-dependent inorganic phosphate cotransporter)	SID104218780	0.0422	0.65	-1.33	inactive
NimB4 (Nimrod B4)	SID104181676	0.756	0.583	0.0123	inactive
NimB4 (Nimrod B4)	SID104203109	-1.47	-1.15	-0.15	inactive
RacGAP84C (Rac GTPase activating protein at 84C)	SID104192422	-0.0698	-0.448	0.0196	inactive
Grip91 (Gamma-tubulin ring protein 91)	SID104200041	-3.29	-0.127	0.649	inactive
Grip91 (Gamma-tubulin ring protein 91)	SID104219069	0.207	-1.03	-0.503	inactive
CG33946	SID104215453	-1.65	-0.534	0.768	inactive
CG33946	SID104216697	0.404	0.963	0.588	inactive
Dus2 (Dihydrouridine synthase 2)	SID104199383	-2.98	0.369	-0.384	inactive
ear (ENL/AF9-related)	SID104195467	-1.28	-2.52	-1.48	inactive
ear (ENL/AF9-related)	SID104203122	-2.41	-4.28	-2.72	active
Acbp4 (Acyl-CoA binding protein 4)	SID104190815	-0.357	0.0099	0.481	inactive
Acbp4 (Acyl-CoA binding protein 4)	SID104207482	-1.66	-3.09	-1.21	inactive
Rad9	SID104191055	0.0378	0.46	0.903	inactive
CG11110	SID104185829	-4.62	-0.502	0.129	inactive
CG11110	SID104205899	-1.77	0.94	0.95	inactive
TotC (Turandot C)	SID104193241	1.08	0.832	-0.42	inactive
Atat (alpha-tubulin acetylase)	SID104190184	2.14	-0.111	-0.573	inactive
sage (salivary gland-expressed bHLH)	SID104194372	-0.201	0.511	-0.0421	inactive
sage (salivary gland-expressed bHLH)	SID104206744	0.107	0.346	-0.000907	inactive
CG30430	SID104201782	-1.69	-1.3	-1.63	inactive
ebo + l(1)1Bb	SID104198579	-1.33	-0.757	-0.445	inactive
ebo + l(1)1Bb	SID104206718	0.491	1.06	0.763	inactive
CG14257	SID104194544	0.207	-2.54	-1.13	inactive
CG14257	SID104206379	-0.76	-0.34	-0.307	inactive
Vha100-4 (Vacuolar H[+] ATPase 100kD subunit 4)	SID104196074	0.765	0.372	0.4	inactive
Vha100-4 (Vacuolar H[+] ATPase 100kD subunit 4)	SID104204683	-0.785	-0.274	-1.75	inactive
ProtA (Protamine A)	SID104183164	-1.26	-1.34	-0.363	inactive
snf (sans fille)	SID104198627	1.07	0.667	0.773	inactive
snf (sans fille)	SID104206398	-1.48	-0.793	0.396	inactive
snf (sans fille)	SID104216524	1.33	1.87	1.51	active

12 entries already listed, sorted by “Wolbachia per cell robust z, rep 3”, ascending.
predicted target	PubChem SID	Wolbachia per cell robust z, rep 1	Wolbachia per cell robust z, rep 2	Wolbachia per cell robust z, rep 3	Call
ear (ENL/AF9-related)	SID104203122	-2.41	-4.28	-2.72	active
ear (ENL/AF9-related)	SID104195467	-1.28	-2.52	-1.48	inactive
Acbp4 (Acyl-CoA binding protein 4)	SID104207482	-1.66	-3.09	-1.21	inactive
Grip91 (Gamma-tubulin ring protein 91)	SID104219069	0.207	-1.03	-0.503	inactive
Dus2 (Dihydrouridine synthase 2)	SID104199383	-2.98	0.369	-0.384	inactive
NimB4 (Nimrod B4)	SID104203109	-1.47	-1.15	-0.15	inactive
RacGAP84C (Rac GTPase activating protein at 84C)	SID104192422	-0.0698	-0.448	0.0196	inactive
Acbp4 (Acyl-CoA binding protein 4)	SID104190815	-0.357	0.0099	0.481	inactive
CG33946	SID104216697	0.404	0.963	0.588	inactive
Grip91 (Gamma-tubulin ring protein 91)	SID104200041	-3.29	-0.127	0.649	inactive
CG33946	SID104215453	-1.65	-0.534	0.768	inactive
Rad9	SID104191055	0.0378	0.46	0.903	inactive
